Measurements reported in patent US7968297B2, “Method for identification, isolation and production of antigens to a specific pathogen” (Intercell AG, priority 2001, dated 2011).

B1: ORF0456 (protein, listed as Staphylococcus aureus)
chain: MNHNVIIVIALIIVVISMLAMLIRVVLGPSLADRVVALDAIGLQLMAVIALFSILLNIKYMIVVIMMIGILAFLGTAVFSKFMDKGKVIEHDQNHTD
B2: ORF2780 (protein, listed as Staphylococcus aureus)
chain: MKKQVIISGLMLFSLFFGAGNLIFPPMLGHTAGQNMWIGMLGFALTGILLPFITVIVVAFYDEGVESVGNRIHPWFGFIFAVVIYMSIGAFYGIPRAANVAYEIGTRHILPVHNQWTLIIFAAIFFAIVYWISLNPSKIVDNLGKLLTPLLLLMVALLSIAVIFNPESALSAPKDKYITHPFISGSLEGYFTMDLVAALAFSVVIVNGYKFKGLTDRMKILKYVCFSGLIAAILLGMIYFALAYVGASTAPGNFKDGTDILTYNSLRLFGSFGNLVFGMTVILACLTTCIGLVNACATFTKKHVPKFSYKIFALIFSIIGFLFTTLGLEMILKIAVPLLTLIYPVSIALVLISFANMFSTFRFSWAYRLATVITLIISILQILNSFNLLHGVILKSFMMLPLADIDLAWLVPFMLFAIIGFIIDVFIRRPKQATT
B3: ORF2610 (protein, listed as Staphylococcus aureus)
chain: MKRLFDVVSSIYGLVVLSPILLITALLIKMESPGPAIFKQKRPTINNELFNIYKFRSMKIDTPNVATDLMDSTSYITKTGKVIRKTSIDELPQLLNVLKGEMSIVGPRPALYNQYELIEKRTKANVHTIRPGVTGLAQVMGRDDITDDQKVAYDHYYLTHQSMMLDMYIIYKTIKNIVTSEGVHH
B4: CRF1783 (protein)
chain: CRINTAFTSIASIWILSLCVCCYRCCWLRCCWSIRWLCLICRCCIIIRCCLVISLTCLVCRCCLISRLCLCSVIRISLITLSSWLCIWLCCSSCWISLSTLVCWLYCWLSLVGRCSWLCCRISLSTSICVRLCIGISWLCWLILCRLILLCCRRCCRVSRYKSNSGN
B5: ORF2553 (protein, listed as Staphylococcus aureus)
chain: MNKVIKMLVVTLAFLLVLAGCSGNSNKQSSDNKDKETTSIKHAMGTTEIKGKPKRVVTLYQGATDVAVSLGVKPVGAVESWTQKPKFEYIKNDLKDTKIVGQEPAPNLEEISKLKPDLIVASKVRNEKVYDQLSKIAPTVSTDTVFKFKDTTKLMGKALGKEKEAEDLLKKYDDKVAAFQKDAKAKYKDAWPLKASVVNFRADHTRIYAGGYAGEILNDLGFKRNKDLQKQVDNGKDIIQLTSKESIPLMNADHIFVVKSDPNAKDAALVKKTESEWTSSKEWKNLDAVKNNQVSDDLDEITWNLAGGYKSSLKLIDDLYEKLNIEKQSK
B6: ORF0788 (protein, listed as Staphylococcus aureus)
chain: MSFFKRLKDKFATNKENEEVKSLTEEQGQDKLEDTHSEGSTQDANDLAENAEVKKKPRKLSEADFDDDGLISIEDFEEIEAQKMGAKFKAGLEKSRQNFQEQLNNLIARYRKVDEDFFEALEEMLITADVGFNTVMTLTEELRMEAQRRNIQDTEDLREVIVEKIVEIYHQEDDNSEAMNLEDGRLNVILMVGVNGVGKTTTIGKLAYRYKMEGKKVMLAAGDTFRAGAIDQLKVWGERVGVDVISQSEGSDPAAVMYDAINAAKNKGVDILICDTAGRLQNKTNLMQELEKVKRVINRAVPDAPHEALLCLDATTGQNALSQARNFKEVTNVTGIVLTKLDGTAKGGIVLAIRNELHIPVKYVGLGEQLDDLQPFNPESYVYGLFADMIEQNEEITTVENDQIVTEEKDDNHGSK
B7: ORF0307 (protein, listed as Staphylococcus aureus)
chain: MLFYLFHFTISFISTVLFSIIFNAPKRLLVACGFVGAIAWTIYQLTVDLEFGKVGASFLGSLILGLMSHTMSRRYKRPVIIFIVPGIIPLVPGGAAYQATRFLVSNDYTSAVNTFLEVTLISGAIAFGILVSEILYYLYTRIKQLYGKIKGKTYKKSYNMNNRV
B8: CRFA002 (protein)
chain: CAIIPPIEGPNPSPKATIDPIKPKALPCFFLVIFLATTTIISEGNAADPTPCTNLPKIKIKK
B9: ORF2192 (protein, listed as Staphylococcus aureus)
chain: MMYGYPEKWLEGMTTGEGIAAELRLGIVNGHIAEGTLLTENQMAKQFNVSRSPIRDAFKLLQQNQLIQLERMGAHVLPFGEQEKKEMYDLRLMLESFAFSRVKNQERLPIVKEMKKQLEMMKVAVKFEDAESFTKHDFEFHETLIKASNHQYLNSFWSHLKPVMMALVLTSMRQRMQQNPQDFERIHHNHQVFIDAVEQYDSQILKEAFHLNFDDVGKDIEGFWLN
B10: CRF1145 (protein)
chain: ASHFSFHLIQYKQIILNIFRSTVASILLFFCLLFMIYFRTVKFFLNFLIINDFCFYMAFNRKRHILSFLK
B11: ORF0629 (protein, listed as Staphylococcus aureus)
chain: MTGEQFTQIKRPVSRLTEKVLGWLCWVMLLVLTVITMFIALVSFSNNTSIANLENTLNNNAFIQQLLAGNGYNTTQFVIWLQNGIWAIIVYFIVCLLISFLALISMNIRILSGFLFLISAIVTIPLVLLIVTLIIPILFFIIAMMLFIRKDKVEMVAPQYYEEYNGPIYDYREPVYERPQPKDDYYDVPKYEKELDKSNTVYDQEQERDKYDQFPKRAVESEYNHDERTEEEPSVLSRQAKYKQKSTEELGIEDDGYYAEPEVDPKELKAQQKREKAEIKAKKKEKRKAYNQRMKERRKNQPSAVSQRRMNFEERRQIYNNDISEERNSSEVKDKKEQE
B12: ORF1523 (protein, listed as Staphylococcus aureus)
chain: MSVEIESIEHELEESIASLRQAGVRITPQRQAILRYLISSHTHPTADEIYQALSPDFPNISVATIYNNLRVFKDIGIVKELTYGDSSSRFDFNTHNHYHIICEQCGKIVDFQYPQLNEIERLAQHMTDFDVTHHRMEIYGVCKECQDK

System: purified IgGs from human sera
Assay: Ribosome display screening with purified human IgGs
Type: binding
Details: for No. of selected clones per ORF and screen: D: Ribosome display: D; for No. of selected clones per ORF and screen: screen D: ribosome display
[1] = LSA250/1 library with IC sera (1686)
[2] = identified by ribosome display (screen D)
[3] = ORFs selected by ribosome display only (screen D)
[4] = LSE150 in pMAL4.31 with P2 (1235)

Row | Molecule | No. of selected clones per ORF and screen: D [1] | Location of identified Immunogenic region [2] | No. of selected clones per ORF and screen [1] | Location of identified Immunogenic region [3] | No. of selected clones per ORF and screen: D [4]
1 | CRF2863/1 (LCSSSLVTILKLLFCISQLFKFLIRILFTLICTFILIFSFFKFCIR) | D: 78 | aa 17-40 |  |  | 
2 | CRF2664 (VTNITLNSAFADATISVFLYQVRY) | D: 17 | aa 1-14 |  |  | 
3 | Hypothetical protease [compound 1356] |  |  | D: 12 |  | 
4 | CRF0538 (LSICIIIIIHAIIFVHIIKNGIQNNN) | D: 7 | aa 1-11 |  |  | 
5 | CRF0009 (NQRLEETISSPHHSSAL) |  |  |  | aa 5-14 | D: 3
6 | Yfix [compound 944] |  |  | D: 4 |  | 
7 | CRF2863/2 (LPSCLYCSTSALCLADCFCTASLALFSCAVVAWLLFLSFCSASLNCLSF) | D: 78 | aa 44-49 |  |  | 
8 | CRF2356 (MCRNCPAFTSCFIRDIIVKCF) | D: 3 | aa 3-18 |  |  | 
9 | CRF2452 (VVYNATYMHLVHVFLIVASLMLILLTNHAYALPH) | D: 9 | aa 7-21 |  |  | 
10 | CRF0005 (FFCRLTQLNWLKYLSVRMLYMYFMIFSIMNHIVSTIC) |  |  |  | aa: 9-33 | D: 3
11 | CRF0337 (MLTTFAVVLIFFLLPSSFLL) | D: 3 | aa 1-20 |  |  | 
12 | CRF1861 (IQRFRNKCFQTTLKWIAVLCLIYFVAITFTYTIITTMKIVIDCNYIVDINIIR) | D: 8 | aa 4-27 |  |  | 
13 | CRF2578 (RYKGKAKCISLLRMIVLFLIIAFHCNDGRRMVCKQMICIFTF) | D: 11 | aa 9-30 |  |  | 
14 | Conserved hypothetical protein [compound 2254] |  |  | D: 3 |  | 
15 | Hypothetical protein [compound 0337] |  |  | D: 12 |  | 
16 | ORF2087 | D: 3 | aa 126-147 |  |  | 

Row | Molecule | No. of selected clones per ORF and screen: D [1] | Location of identified Immunogenic region [2] | No. of selected clones per ORF and screen [1] | Location of identified Immunogenic region [3] | No. of selected clones per ORF and screen: D [4]
17 | CRF1356 (LPIPSTRSAPIIPAINATMTVLNHGNLGLLYLGVWLWFVVE) | D: 5 | aa 5-33 |  |  | 
18 | ARF0183 (KRLVMQQHLQFNLPKIILLNALTKRFLSLLVTQLVMVFILVVSLLKVPVQLQ; listed as Staphylococcus epidermidis) |  |  |  | aa 1-52 | D: 4
19 | Hexose transporter [compound 2670] |  |  | D: 16 |  | 
20 | ARF2455 (LRLRQFQLLCTLVLLMLVALFLHAFLRYLMTK; listed as Staphylococcus epidermidis) |  |  |  | aa 1-22 | D: 3
21 | B1 | D: 66 | aa 1-21 |  |  | 
22 | B2 | D: 3 | aa 26-40 |  |  | 
23 | B3 | D: 13 | aa 114-141 |  |  | 
24 | B4 | D: 5 | aa 76-127 |  |  | 
25 | B5 | D: 3 | aa 1-22 |  |  | 
26 | B6 | D: 4 | aa 152-178 |  |  | 
27 | B7 | D: 3 | aa 9-44 |  |  | 
28 | B8 | D: 3 | aa 38-55 |  |  | 
29 | B9 | D: 3 | aa 15-35 |  |  | 
30 | B10 | D: 28 | aa 16-32 |  |  | 
31 | B11 | D: 313 | aa 13-37 |  |  | 
32 | B12 | D: 3 | aa 120-135 |  |  | 
